The results in this text go back to ChEMBL document CHEMBL5370647, “Dual Inhibition of Mycobacterium tuberculosis and the Host TGFBR1 by an Anilinoquinazoline” (J Med Chem, 2023).

SMILES strings stand for the structures.

For the test, the target named is T1, TGF-beta receptor type-1 (Homo sapiens, UniProt P36897).
T1 sequence (P36897 whole entry): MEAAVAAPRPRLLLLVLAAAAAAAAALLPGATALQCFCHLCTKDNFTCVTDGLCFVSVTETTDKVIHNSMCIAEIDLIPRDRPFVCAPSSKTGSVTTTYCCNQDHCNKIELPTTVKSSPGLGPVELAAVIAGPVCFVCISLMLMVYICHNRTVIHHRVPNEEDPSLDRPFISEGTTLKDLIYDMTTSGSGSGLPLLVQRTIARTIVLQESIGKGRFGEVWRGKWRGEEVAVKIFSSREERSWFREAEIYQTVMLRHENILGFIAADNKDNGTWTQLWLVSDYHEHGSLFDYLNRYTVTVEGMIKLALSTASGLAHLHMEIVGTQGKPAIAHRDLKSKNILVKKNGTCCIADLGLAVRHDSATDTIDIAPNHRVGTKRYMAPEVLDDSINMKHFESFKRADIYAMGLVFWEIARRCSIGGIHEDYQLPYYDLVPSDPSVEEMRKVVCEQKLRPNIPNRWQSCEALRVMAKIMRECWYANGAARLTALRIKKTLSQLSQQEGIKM
In words: Binding affinity to wild type human partial length TGFBR1 (D179 to M503 residues) expressed in bacterial expression system by KINOMEscan assay.

Take `Cc1cccc(-c2nc(Nc3ccc4nn(C)cc4c3)c3ccccc3n2)n1`: the Kd is > 10 µM.

By Kd is commonly meant the concentration at which binding is half-saturated.
